# Reference: US20040072369A1, “Methods for assaying for urea and kits for use therein” (priority 2002, published 2004)
# B1: Y151W nUreR (protein, UniProt Q02458 1-293, looked up, variant Y151W)
# Urease operon transcriptional …: MEYKHILSSNQISLKTFYIENPMIAIVYGAKGEICINGQTITVTTNLTLIIPKYSQVSCDVTNFFPTKPIELHTLVLSETELQSVFSLLKPLIKSGAPITRHLPDYHLSTPEVVKTNFTLLQQCLPLEHGTPSQETLFMQQSLFFILLAVWHEGVDILNIFRFNYDEPKNQAITHLITQDPQRKWHLEDVAKTLYTTPSTLRRHLSKEGVSFCQLLLDVRMPIALNYLTFSNYSVFQISHRCGFGSNAYFCDAFKRKYGMTPSQFRTQSRQANDPNAIATMASQNDESIKKVF
# Experiment: Frequency-domain Trp fluorescence lifetime of nUreR Trp mutants with and without urea
# Format: binding
molecule,measurement,setting,value
B1,"<τ> Trp fluorescence lifetime, 150 mM urea",150 mM urea,1.95 ns
same,"<τ> Trp fluorescence lifetime, No Urea",no urea,1.98 ns
